# From patent US9023857B2, “Substituted 6-(2-aminobenzylamino)purine derivatives, their use as medicaments and preparations containing these compounds” (Univerzita Palackeho V Olomouci, priority 2009, dated 2015)
# System: HAd4
# Assay: HAd4 yield reduction assay (multiple step growth curve) in A549 cells
# Conditions: 10 μM 105, 100 μM Cidofovir or both
Compound,reduction of total virus yield (24 hours post infection) [logs],reduction of total virus yield (48 hours post infection) [logs],reduction of total virus yield (96 hours post infection)
"Nc1ccn(C[C@@H](CO)OCP(=O)(O)O)c(=O)n1 [Cidofovir, (S)-1-[3-Hydroxy-2-(phosphonylmethoxy)propyl]-cytosine, reference compound]",2,2,3 logs
"CCC(CO)Nc1nc(NCc2ccccc2N)c2ncn(C(C)C)c2n1 (stereo not drawn) [Compound 105, 2-({6-[(2-aminobenzyl)amino]-9-isopropyl-9H-purin-2-yl}amino)butan-1-ol]",5,1,no overall effect
